# Measured data: PubChem BioAssay AID624099 (ICCB-Longwood, 2012)
# Screen: 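Human genes that papillomavirus E2 requires to repress the HPV18 LCR promoter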 (primary screen)
# System: human C33A cervical carcinoma cells (HPV-negative) stably expressing BPV1 E2 and an HPV18 LCR luciferase reporter
# Knock-down reagent: siRNA pool against human genes, 40 nM
# Time to read-out: 72 h
# Read-out: 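Per-well luciferase luminescence, z-scored on each plate against the plate mean and SD with control wells left out, then averaged across three replicate plates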
# Scale: mean z-score and z-score: higher = stronger reporter signal, weaker E2 silencing
# Rule for the call: 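Hit if mean z-score reaches 2 and two or more of three replicate z-scores also reach 2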
# This is one part, drawn at random, of about 21,000 deposited reagents. 497 of all reagents (2.4%) count as active. 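Higher z means weaker E2 silencing; only reporter increases were scored, and knock-downs that hurt cell survival may mask genuine repressor factors.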 Entries without a mark were called inactive. The numbers tell different reagents against one gene apart.
target gene,reagent,mean z-score,"z-score, replicate A","z-score, replicate B","z-score, replicate C"
RNF17 (ring finger protein 17),1,0.9,0.7,1.31,0.7
RNF17 (ring finger protein 17),2,-0.91,-1.06,-0.94,-0.74
CEP15 (centrosomal protein 15),1,1.19,0.93,1.14,1.49
CCDC33 (coiled-coil domain containing 33),1,-2.37,-2.09,-2.36,-2.66
ZNF99 (zinc finger protein 99),1,0.59,0.66,0.82,0.29
CRNN (cornulin),1,1.21,1.54,1.39,0.7
LOC389323 (retired record),1,-0.85,-0.75,-0.93,-0.88
NUS1P1 (NUS1 pseudogene 1),1,-0.49,-0.43,-0.74,-0.3

Entries above whose target name begins with R or r (2):
target gene,reagent,mean z-score,"z-score, replicate A","z-score, replicate B","z-score, replicate C"
RNF17 (ring finger protein 17),1,0.9,0.7,1.31,0.7
RNF17 (ring finger protein 17),2,-0.91,-1.06,-0.94,-0.74

The listing continues:
target gene,reagent,mean z-score,"z-score, replicate A","z-score, replicate B","z-score, replicate C"
LINC01559 (long independently transcribed non-coding RNA 1559),1,0.08,-0.12,-0.08,0.44
TSPAN13 (tetraspanin 13),1,0.35,-0.02,0.41,0.67
ZNF800 (zinc finger protein 800),1,0.86,0.46,1.18,0.93
F7 (coagulation factor VII),1,0.41,0.31,0.42,0.49
OXR1 (oxidation resistance 1),1,-0.26,-0.23,-0.04,-0.5
LOC387871 (retired record),1,-0.85,-0.8,-0.54,-1.21
SIDT1 (SID1 transmembrane family member 1),1,-0.91,-1.03,-0.9,-0.79
SUMO4 (small ubiquitin like modifier 4),1,2.12 (active),2.35,2.02,1.98
DANCR (differentiation antagonizing non-protein coding RNA),1,1.45,1.66,1.45,1.25
FLJ46365 (retired record),1,-0.58,-0.47,-0.6,-0.68
RWDD1 (RWD domain containing 1),1,0.08,0.12,-0.09,0.2
GSTT4 (glutathione S-transferase theta 4),1,0.35,0.34,0.47,0.25
CTRC (chymotrypsin C),1,-1.2,-1.36,-1.13,-1.1
"PSMD9 (proteasome 26S subunit, non-ATPase 9)",1,0.67,0.72,0.4,0.89
DIPK1B (divergent protein kinase domain 1B),1,-1.07,-1.22,-0.62,-1.37
